Pooled drug test results. Numbers come from NIAID ChemDB, via PubChem.

Common to all: tests in culture; species: Plasmodium falciparum

Blank or dashed fields: not listed here. Neighbouring rows are from separate reports. ECn: concentration that inhibits the pathogen or its effect by n%.

| structure | strain or isolate | read by | read-out | changes | cell line | result |
|---|---|---|---|---|---|---|
| Cc1ccc(OCC(O)CN2CCc3ccccc3C2)c(C(C)(C)C)c1 | 3D7 | flow cytometry | EC50 | - | Erythrocytes | 6.03 µM |
| CCN(CC)CCCC(C)Nc1ccnc2cc(Cl)ccc12 | D6 | - | EC50 | - | - | 0.05 µM |
| C/C=C1/CC2CCC3=C(Cc4ccccc43)C2C[C@@H]1C1=CN2c3ccccc3C34CCN5C/C(=C/O)[C@H](C[C@H]53)[C@@H]([C@@H]1O)[C@H]24 | 3D7 | - | EC50 | - | - | 0.698 µg/mL |
| C[C@@H]1CC[C@H]2[C@@H](C)C(=O)O[C@@H]3OC4(C)CC[C@@H]1[C@]32OO4 | FCR3 | LDH | EC50 | - | Erythrocyte | 0.006 µg/mL |
| CCCCN(CCCC)CC(O)COc1ccc2ccccc2c1 | 3D7 | flow cytometry | EC50 | - | Erythrocytes | 3.49 µM |
| OCCCCNc1nc(NCCCCNc2ccnc3cc(Cl)ccc23)nc(N2CCOCC2)n1 | D6 | - | EC50 | - | - | 0.09 µM |
| CCCCC1(CC(=O)OCC)C(=O)N(c2ccccc2)N(c2ccccc2)C1=O | 3D7 | flow cytometry | EC50 | - | Erythrocytes | >16.6 µM |
| C[C@@H]1CC[C@H]2[C@@H](C)C(=O)O[C@@H]3OC4(C)CC[C@@H]1[C@]32OO4 | D6 | - | EC50 | - | - | 0.014 µM |
| CC1(C)O[C@@H]1COc1c2occc2cc2ccc(=O)oc12 | CQ-sensitive | - | EC50 | - | RBC | 2.85 µg/mL |
| C/C=C1/CN2CCc3c([nH]c4ccccc34)C2C[C@@H]1C1=CN2c3ccccc3C34CCN5CC6=CCO[C@@H]1[C@@H]([C@H]23)[C@H]6C[C@H]54 | 3D7 | - | EC50 | - | - | 0.388 µg/mL |
| CCc1ncn(CC(=O)CC2NCCC[C@@H]2O)c(=O)c1CC | K1 | LDH / absorbance | EC50 | - | Human A+ erythrocytes | 0.243 µg/mL |
| OCCCCNc1nc(NCCCNc2ccnc3cc(Cl)ccc23)nc(N2CCOCC2)n1 | D6 | - | EC50 | - | - | 0.51 µM |
| C[C@@H]1O[C@@H](OC[C@H]2O[C@@H](Oc3c(-c4ccc(O)c(O)c4)oc4cc(O)cc(O)c4c3=O)[C@H](O)[C@@H](O)[C@@H]2O)[C@H](O)[C@H](O)[C@H]1O | Clinical isolates | - | EC90 | - | - | 60.6 µM |
| OCCCCNc1nc(NCCNc2ccnc3cc(Cl)ccc23)nc(N2CCOCC2)n1 | D6 | - | EC50 | - | - | 0.48 µM |
| CCN(CC)CCCC(C)Nc1ccnc2cc(Cl)ccc12 | FcB1 | broth dilution / radiometric | EC50 | - | human red blood cells | 0.102 µM |
| O=C(CC1NCCC[C@@H]1O)Cn1cnc2c(c1=O)CCCC2 | K1 | LDH / absorbance | EC50 | - | Human A+ erythrocytes | 0.0857 µg/mL |
| O[C@H](c1cc(C(F)(F)F)nc2c(C(F)(F)F)cccc12)[C@@H]1CCCCN1 | Dd2 (EF1) | SYBR Green / fluorescence | EC50 | Multidrug-resistant | - | 0.0146 µM |
| CC(C)(c1ccccc1)c1ccc(OCCCn2ccnc2)cc1 | K1 | flow cytometry | EC50 | - | Erythrocytes | >12.5 µM |
| COc1cc(/C=C2\CC/C(=C\c3ccc(OCCN(C)C)c(OC)c3)C2=O)ccc1OCCN(C)C | W2 | - | EC50 | - | - | 1.53 µM |
| OCCCCNc1nc(NCCNc2ccnc3cc(Cl)ccc23)nc(N2CCCCC2)n1 | W2 | - | EC50 | - | - | 0.4 µM |
| CCN(CC)CCCC(C)Nc1ccnc2cc(Cl)ccc12 | W2 | LDH / absorbance | EC50 | - | - | 0.35 µg/mL |
| COc1cc(/C=C2\CC/C(=C\c3ccc(OCCCn4ccnc4C)c(OC)c3)C2=O)ccc1OCCCn1ccnc1C | W2 | - | EC50 | - | - | 4.48 µM |
| OCCNc1nc(NCCCCNc2ccnc3cc(Cl)ccc23)nc(N2CCCCC2)n1 | W2 | - | EC50 | - | - | 0.42 µM |
| CC(O)CNCCCCOc1ccc(Cl)cc1Cc1ccccc1 | 3D7 | flow cytometry | EC50 | - | Erythrocytes | >7.06 µM |
| O=c1c2ccccc2ncn1CC1(O)CC2NCCCC[C@@H]2O1 | K1 | LDH / absorbance | EC50 | - | Human A+ erythrocytes | 0.187 µg/mL |
| C[C@@H]1CC[C@H]2[C@@H](C)C(=O)O[C@@H]3OC4(C)CC[C@@H]1[C@]32OO4 | GNF-Pf4492R-2 | SYBR Green / fluorescence | EC50 | GNF-Pf4492-resistant pfatp4 I203L/P990R | - | 0.0181 µM |
| CC(NCC(O)COc1ccccc1C(C)(C)C)c1ccccc1 | K1 | flow cytometry | EC50 | - | Erythrocytes | 0.7109 µM |
| O=C(CC1NCCC[C@@H]1O)Cn1cncc(-c2ccccc2)c1=O | FCR3 | LDH / absorbance | EC50 | - | Human A+ erythrocytes | 0.0422 µg/mL |
| C/C=C1/CN2CCC34c5ccccc5N5C(OC)C67OC(C([C@H]53)[C@H]1C[C@H]24)N1c2ccccc2C2(CCN3C/C(=C/C)[C@@H]6C[C@H]32)[C@@H]17 | W2 | - | EC90 | - | - | 2.969 µg/mL |
| CCOc1ccc2nc(C)cc(Nc3ccc4c(c3)OCCO4)c2c1 | K1 | flow cytometry | EC50 | - | Erythrocytes | >17.9 µM |
| CCCCCCc1ncn(CC(=O)CC2NCCC[C@@H]2O)c(=O)c1CCCCCC | FCR3 | LDH / absorbance | EC50 | - | Human A+ erythrocytes | >1 µg/mL |
| COc1cc(/C=C2\CC/C(=C\c3ccc(OCCn4ccnc4C)c(OC)c3)C2=O)ccc1OCCn1ccnc1C | W2 | - | EC50 | - | - | 3.01 µM |
| CCOc1ccc(Nc2cc(C)nc3ccc(OC)cc23)cc1 | 3D7 | flow cytometry | EC50 | - | Erythrocytes | 1.72 µM |
| C[C@@H]1CC[C@H]2[C@@H](C)C(=O)O[C@@H]3OC4(C)CC[C@@H]1[C@]32OO4 | FCM29 | broth dilution / radiometric | EC50 | - | human red blood cells | 0.0125 µM |

The first 5 rows once more:

structure,strain or isolate,read by,read-out,changes,cell line,result
Cc1ccc(OCC(O)CN2CCc3ccccc3C2)c(C(C)(C)C)c1,3D7,flow cytometry,EC50,-,Erythrocytes,6.03 µM
CCN(CC)CCCC(C)Nc1ccnc2cc(Cl)ccc12,D6,-,EC50,-,-,0.05 µM
C/C=C1/CC2CCC3=C(Cc4ccccc43)C2C[C@@H]1C1=CN2c3ccccc3C34CCN5C/C(=C/O)[C@H](C[C@H]53)[C@@H]([C@@H]1O)[C@H]24,3D7,-,EC50,-,-,0.698 µg/mL
C[C@@H]1CC[C@H]2[C@@H](C)C(=O)O[C@@H]3OC4(C)CC[C@@H]1[C@]32OO4,FCR3,LDH,EC50,-,Erythrocyte,0.006 µg/mL
CCCCN(CCCC)CC(O)COc1ccc2ccccc2c1,3D7,flow cytometry,EC50,-,Erythrocytes,3.49 µM